# Substitutions are numbered along the chain they refer to.
# B1: Glu-[Pra1; Nle6; Glu11, 28]JzTx-V(1-29) (peptide)
# peptide: EGCQKWLWTCDEKRACCEGLRCKLWCRKEI
# modifications: not checked
# B2: CyA-[Nle6, Pra17, Glu20]JzTx-V(1-29) (peptide)
# peptide: AYCQKWLWTCDSKRACCGGLECKLWCRKII
# modifications: not checked
# B3: CyA-[Nle6; Glu12, 28; Pra17]JzTx-V(1-29) (peptide)
# peptide: B2 peptide with K13E, E21R, I29E
# modifications: not checked
# B4: CyA-[Nle6, Pra17, Glu20, Tyr28]JzTx-V(1-29) (peptide)
# peptide: B2 peptide with I29Y
# modifications: not checked
# B5: Glu-[Pra1; Nle6; Glu11, 14, 28]JzTx-V(1-29) (peptide)
# peptide: B1 peptide with A15E
# modifications: not checked
# B6: Pra-[Glu1, 12, 28; Nle6]JzTx-V(1-29) (peptide)
# peptide: GECQKWLWTCDSERACCEGLRCKLWCRKEI
# modifications: not checked
# B7: Glu-Pra-[Nle6; Glu11, 28]JzTx-V(1-29) (peptide)
# peptide: EGYCQKWLWTCDEKRACCEGLRCKLWCRKEI
# modifications: not checked
# B8: Glu-Pra-[Glu1, 11, 28; Nle6]JzTx-V(1-29) (peptide)
# peptide: B7 peptide with Y3E
# modifications: not checked
# B9: Pra-[Nle6; Glu22, 28]JzTx-V(1-29) (peptide)
# peptide: B6 peptide with E2Y, E13K, K23E
# modifications: not checked
# B10: Pra-[Nle6; Chg23; Glu28]JzTx-V(1-29) (peptide)
# peptide: B6 peptide with E2Y, E13K, L24G
# modifications: not checked
# B11: CyA-[Nle6; Pra12; Glu28]JzTx-V(1-29) (peptide)
# peptide: B6 peptide with G1A, E2Y, E13G
# modifications: not checked
# B12: CyA-[Nle6; Glu11; Pra17; 5-BrW24]JzTx-V(1-29) (peptide)
# peptide: B2 peptide with S12E, E21R
# modifications: not checked
# B13: Pra-[Nle6; Lys17; Glu28]JzTx-V(1-29) (peptide)
# peptide: B6 peptide with E2Y, E13K, E18K
# modifications: not checked
# B14: Pra-[Glu1, 11, 28; Nle6]JzTx-V(1-29) (peptide)
# peptide: B1 peptide with E1G, G2E
# modifications: not checked
# B15: CyA-[Glu1, 11, 28; Nle6; Pra17; Cha29]JzTx-V(1-29) (peptide)
# peptide: AECQKWLWTCDEKRACCGGLRCKLWCRKEA
# modifications: not checked
# B16: Glu-[Pra1; Nle6; Glu11, 12, 28]JzTx-V(1-29) (peptide)
# peptide: B1 peptide with K13E
# modifications: not checked
# B17: Pra-[Nle6; Glu14, 28]JzTx-V(1-29) (peptide)
# peptide: B6 peptide with E2Y, E13K, A15E
# modifications: not checked
# B18: Glu-[Pra1; Nle6; Glu14, 28]JzTx-V(1-29) (peptide)
# peptide: B1 peptide with E12S, A15E
# modifications: not checked
# B19: CyA-[Nle6; Pra11; Glu28]JzTx-V(1-29) (peptide)
# peptide: B1 peptide with E1A, G2Y, E12G
# modifications: not checked
# B20: Pra-[Nle6; Lys20; Glu28]JzTx-V(1-29) (peptide)
# peptide: B6 peptide with E2Y, E13K, R21K
# modifications: not checked
# B21: CyA-[Glu1, 28; Nle6; Pra17; Cha29]JzTx-V(1-29) (peptide)
# peptide: B15 peptide with E12S
# modifications: not checked
# B22: [Pra1; Nle6; Val20; Glu28]JzTx-V(1-29) (peptide)
# peptide: GCQKWLWTCDSKRACCEGLVCKLWCRKEI
# modifications: not checked
# B23: [CyA1; Nle6; Glu11, 28; Pra17]JzTx-V(1-29) (peptide)
# peptide: ACQKWLWTCDEKRACCGGLRCKLWCRKEI
# modifications: not checked
# B24: Pra-[Nle6; Glu12, 28; Lys17]JzTx-V(1-29) (peptide)
# peptide: B6 peptide with E2Y, E18K
# modifications: not checked
# B25: Pra-[Glu1, 14, 28; Nle6]JzTx-V(1-29) (peptide)
# peptide: B6 peptide with E13K, A15E
# modifications: not checked
# B26: CyA-[Nle6; Glu14, 28; Pra17]JzTx-V(1-29) (peptide)
# peptide: B2 peptide with A15E, E21R, I29E
# modifications: not checked
# B27: Pra-[Nle6; Glu11, 12, 28]JzTx-V(1-29) (peptide)
# peptide: B6 peptide with E2Y, S12E
# modifications: not checked
# B28: Pra-[Nle6; Ile23; Glu28]JzTx-V(1-29) (peptide)
# peptide: B6 peptide with E2Y, E13K, L24I
# modifications: not checked
# B29: CyA-[Nle6, Atz(His tag)17, Glu28]JzTx-V(1-29) (peptide)
# peptide: B2 peptide with G18A, E21R, I29E
# modifications: not checked
# B30: [CyA1; Nle6; Pra17; Gln22; Glu28]JzTx-V(1-29) (peptide)
# peptide: ACQKWLWTCDSKRACCGGLRCQLWCRKEI
# modifications: not checked
# B31: Pra-[Nle6; Tyr20]JzTx-V(1-29) (peptide)
# peptide: B2 peptide with A1G, G18E, E21Y
# modifications: not checked
# B32: Pra-[Nle6; Nva23; Glu28]JzTx-V(1-29) (peptide)
# peptide: B6 peptide with E2Y, E13K, L24V
# modifications: not checked
# B33: CyA-[Glu1, 11, 12, 14, 28; Nle6; Pra17]JzTx-V(1-29) (peptide)
# peptide: B15 peptide with K13E, A15E, A30I
# modifications: not checked
# B34: Glu-Nva-[Glu1, 11, 28; Nle6; Pra17]JzTx-V(1-29) (peptide)
# peptide: B7 peptide with G2V, Y3E, E19G
# modifications: not checked
# B35: Pra-[Nle6; Gln22; Glu28]JzTx-V(1-29) (peptide)
# peptide: B6 peptide with E2Y, E13K, K23Q
# modifications: not checked
# B36: CyA-[Nle6; Pra17; 6-BrW24; Glu28]JzTx-V(1-29) (peptide)
# peptide: B2 peptide with E21R, I29E
# modifications: not checked
# B37: CyA-[Nle6; Pra17; 7-BrW24; Glu28]JzTx-V(1-29) (peptide)
# peptide: B2 peptide with E21R, I29E
# modifications: not checked
# B38: Pra-[Nle6; Phe20; Glu28]JzTx-V(1-29) (peptide)
# peptide: B6 peptide with E2Y, E13K, R21F
# modifications: not checked
# B39: Pra-[Nle6; Glu18, 28]JzTx-V(1-29) (peptide)
# peptide: B6 peptide with E2Y, E13K, G19E
# modifications: not checked
# B40: CyA-[Glu1, 12, 14, 28; Nle6; Pra17]JzTx-V(1-29) (peptide)
# peptide: B6 peptide with G1A, A15E, E18G
# modifications: not checked
# B41: Pra-[Nle6; Arg19; Glu28]JzTx-V(1-29) (peptide)
# peptide: B6 peptide with E2Y, E13K, L20R
# modifications: not checked
# B42: Pra-[Nle6; Lys19; Glu28]JzTx-V(1-29) (peptide)
# peptide: B6 peptide with E2Y, E13K, L20K
# modifications: not checked
# B43: [Nle6; AzK11; Glu20; Trp29]JzTx-V(1-29) (peptide)
# peptide: YCQKWLWTCDKKRACCEGLECKLWCRKIW
# modifications: not checked
# B44: Pra-[Nle6; Glu19, 28]JzTx-V(1-29) (peptide)
# peptide: B6 peptide with E2Y, E13K, L20E
# modifications: not checked
# B45: Pra-[Nle6; Ala20; Glu28]JzTx-V(1-29) (peptide)
# peptide: B6 peptide with E2Y, E13K, R21A
# modifications: not checked
# B46: CyA-[Nle6, Atz(palmitate)17, Glu28]JzTx-V(1-29) (peptide)
# peptide: B2 peptide with G18A, E21R, I29E
# modifications: not checked
# B47: Pra-[Nle6; Ala19; Glu28]JzTx-V(1-29) (peptide)
# peptide: B6 peptide with E2Y, E13K, L20A
# modifications: not checked
# B48: [Nle6; Pra12; Glu28]JzTx-V(1-29) (peptide)
# peptide: YCQKWLWTCDSGRACCEGLRCKLWCRKEI
# modifications: not checked
# B49: CyA-[Nle6; Pra17; 6-MeW24; Glu28]JzTx-V(1-29) (peptide)
# peptide: B2 peptide with E21R, I29E
# modifications: not checked
# B50: Homodimeric Peptide No. 5 (peptide)
# peptide: DCLGAFRKCIPDADKCCRPNLVCSRLHRWCKYVF
# modifications: not checked
# B51: CyA-[Nle6, Atz(GGGGS-SA21-amide)17, Glu28]JzTx-V(1-29) (peptide)
# peptide: B2 peptide with G18A, E21R, I29E
# modifications: not checked
# Biological target: human Nav1.4 voltage-gated sodium channel (human), P35499
# Assay: cell-based or functional assay
Binder,Nav1.4/Nav1.7,PX hNav1.4 Tonic IC50 [nM]
B1,375,547
B2,98,
B3,291,253
B4,20,
B5,411,1190
B6,416,1720
B7,452,1050
B8,302,1680
B9,> 442,> 10000
B10,361,177
B11,62,92.1
B12,12,7.4
B13,24,33.9
B14,231,1280
B15,311,294
B16,323,2150
B17,333,325
B18,437,246
B19,2670,517
B20,357,185
B21,117,37.6
B22,280,1120
B23,159,457
B24,46,405
B25,494,670
B26,109,130
B27,374,1420
B28,182,193

# Biological target: human Nav1.7 voltage-gated sodium channel (human), Q15858
# Assay: cell-based or functional assay
Binder,PX hNav1.7 Tonic IC50 [nM],Nav1.7 PX IC50 [nM]
B29,34.3,
B1,1.46,
B30,47.6,
B31,5.98,
B3,0.87,
B5,2.91,
B6,4.14,
B32,3.03,
B33,> 1000,
B7,2.33,
B8,5.59,
B34,15.2,
B35,35.3,
B36,8.47,
B37,25.3,
B9,22.6,
B38,10.3,
B39,> 1000,
B10,0.489,
B11,1.48,
B12,0.64,
B40,> 1000,
B13,1.42,
B14,5.55,
B15,0.95,

Binder,PX hNav1.7 Tonic IC50 [nM],Nav1.7 PX IC50 [nM]
B16,6.66,
B17,0.975,
B41,> 1000,
B42,> 1000,
B18,0.563,
B19,0.193,
B43,435,
B44,> 1000,
B20,0.519,
B21,0.321,
B22,3.99,
B45,905,
B23,2.87,
B24,8.76,
B46,260,
B47,> 1000,
B25,1.36,
B48,1.35,
B49,14,
B50,,91
B51,299,
B26,1.19,
B27,3.8,
B28,1.06,

# Reference: patent publication US20160024159A1, “Potent and selective inhibitors of Nav1.7” (published 2016)
